Measured values from several laboratories, pooled; numbers as filed in NIAID ChemDB.

Shared fields: growth or infection tests; agent: Respiratory syncytial virus; endpoint: EC50

Neighbouring rows are from separate reports. ECn is the concentration giving n% inhibition of infection, replication or growth. Blank or dashed fields: not listed here.

SMILES,strain,cell line,read by,value
Nc1cc2[nH]cnc2c(=O)[nH]1,58-7,HeLa,cytopathic effect,0.89 µg/mL
NC(=O)c1ncn([C@@H]2O[C@H](CO)[C@@H](O)[C@H]2O)n1,20,HEP-2,plaque count,4 µg/mL
NC(=O)c1ncn([C@@H]2O[C@H](CO)[C@@H](O)[C@H]2O)n1,LONG,VERO,cytopathic effect,>200 µg/mL
Clc1ccc(-c2csc(N3N=C(c4cccs4)CC3c3ccc(Cl)cc3)n2)cc1,LONG,HeLa,cytopathic effect,>200 µg/mL
CC(C)CCn1c(Cn2c(=O)n(CCCS(=O)(=O)O)c3ccccc32)nc2ccccc21,Long (subtype A),HEP-2,cytopathic effect,0.04 µM
Cc1ccc(O)c(Cn2c(NC3CCN(CCN)CC3)nc3c(C)cccc32)n1,A2,HEP-2,-,0.0021 µM
CC(C)CCn1c(Cn2c(=O)n(CC(=N)N=[N+]=[N-])c3ccccc32)nc2ccccc21,Long (subtype A),HEP-2,cytopathic effect,0.5 µM
Nc1ncnc2c1ncn2CC(O)C(=O)O,LONG,HeLa,cytopathic effect,>500 µg/mL
O=C(O)c1cccc(Cn2c(=O)n(Cc3nc4ccccc4n3CCCn3cnnn3)c3ccccc32)c1,Long (subtype A),HEP-2,cytopathic effect,0.007 µM
CC1(C)[C@H](CO)C[C@@H]1Cn1nnc2c(N)nc(N)nc21,-,HeLa,cytopathic effect,>400 µg/mL
O=c1cc(-c2ccc(Oc3c(O)cc4oc(-c5ccc(O)cc5)cc(=O)c4c3O)cc2)oc2cc(O)cc(O)c12,UTAH 89,MA-104,cytopathic effect,>3.2 µg/mL
CC(C)CCn1c(Cn2c(=O)n(CCCCCN=[N+]=[N-])c3ccccc32)nc2ccccc21,Long (subtype A),HEP-2,cytopathic effect,0.01 µM
CC1(C)[C@H](CO)C[C@@H]1Cn1cnc2c(N)nc(N)nc21,-,HeLa,cytopathic effect,3 µg/mL
c1ccc2c(c1)CSSC2,clone 16 (RD3-0028-resistant),HeLa,cytopathic effect,>244.4 µM
CC(C)CCCC(C)C1CCC2C3CC=C4CC(OC(=O)Cl)CCC4(C)C3CCC12C,-,HeLa,cytopathic effect,>200 µM
Nc1ncnc2c1ncn2[C@@H]1C[C@@H](O)[C@H](CO)O1,TYPE A,MA-104,-,>100 µM
CCCCCCCCCCCCCCCCCCCCCCOCC(C)(COCCCCCCCCCCCCCCCCCCCCCC)CO[C@]1(C(=O)O)C[C@H](OS(=O)(=O)O)[C@@H](NC(C)=O)[C@H]([C@H](OS(=O)(=O)O)[C@@H](COS(=O)(=O)O)OS(=O)(=O)O)O1,LONG,HEP-2,plaque count,0.2 µM
C[C@H](O)[C@]1(C)C[C@H](Cn2nnc3c(N)ncnc32)C1(C)C,-,HeLa,cytopathic effect,>200 µg/mL
CC(C)CCCC(C)C1CCC2C3CC=C4CC(OC(=O)Nc5ccc(S(=O)(=O)O)c6ccccc56)CCC4(C)C3CCC12C,-,HeLa,cytopathic effect,6 µM
NC(=O)c1[nH]nc([C@@H]2O[C@H](CO)[C@@H](O)[C@H]2O)c1O,58-17,HeLa,cytopathic effect,0.08 µg/mL
NC(=O)c1[nH]nc([C@@H]2O[C@H](CO)[C@@H](O)[C@H]2O)c1O,A2,HeLa,cytopathic effect,0.04 µg/mL
Cc1cn([C@@H]2C[C@@H](O)[C@H](CO)O2)c(=O)[nH]c1=O,TYPE A,MA-104,-,>100 µM
Nc1ccn([C@@H]2C[C@H](CO)[C@@H](O)[C@H]2O)c(=O)n1,LONG,HeLa,cytopathic effect,>50 µg/mL
C[C@H](O)[C@@H]1C[C@H](CCn2cnc3c(N)ncnc32)C1(C)C,-,HeLa,cytopathic effect,>400 µg/mL
Cc1cn([C@@H]2C[C@@H](O)[C@H](CO)O2)c(=O)[nH]c1=O,TYPE A,MA-104,-,>100 µM
C=C(C)n1c(=O)n(Cc2nc3ccccc3n2CCCC(=N)N=[N+]=[N-])c2ccccc21,Long (subtype A),HEP-2,cytopathic effect,0.01 µM
C[C@H](O)[C@@H]1C[C@H](Cn2nnc3c(=O)[nH]cnc32)C1(C)C,-,HeLa,cytopathic effect,>200 µg/mL
C[C@@]1(O)[C@@H](CO)O[C@@H](n2ccc(=O)[nH]c2=O)[C@@H]1O,LONG,HeLa,cytopathic effect,>500 µg/mL
NC(=O)c1ncn([C@@H]2O[C@H](CO)[C@@H](O)[C@H]2O)c1O,TYPE A/FM-58-8,HeLa,plaque count,4.4 µg/mL
Nc1ccc(S(=O)(=O)O)c2ccccc12,-,HeLa,cytopathic effect,>200 µM
C#Cc1c(C(N)=O)ncn1[C@@H]1O[C@H](CO)[C@@H](O)[C@H]1O,TYPE A/NS-100,HeLa,plaque count,0.06 µg/mL
NC(=O)c1ncn([C@@H]2O[C@H](CO)[C@@H](O)[C@H]2O)n1,-,HeLa,cytopathic effect,2 µg/mL
Nc1ncnc2c1ncn2[C@@H]1C[C@@H](O)[C@H](CO)O1,TYPE A,MA-104,-,>100 µM

Again, the opening 5 rows:

SMILES,strain,cell line,read by,value
Nc1cc2[nH]cnc2c(=O)[nH]1,58-7,HeLa,cytopathic effect,0.89 µg/mL
NC(=O)c1ncn([C@@H]2O[C@H](CO)[C@@H](O)[C@H]2O)n1,20,HEP-2,plaque count,4 µg/mL
NC(=O)c1ncn([C@@H]2O[C@H](CO)[C@@H](O)[C@H]2O)n1,LONG,VERO,cytopathic effect,>200 µg/mL
Clc1ccc(-c2csc(N3N=C(c4cccs4)CC3c3ccc(Cl)cc3)n2)cc1,LONG,HeLa,cytopathic effect,>200 µg/mL
CC(C)CCn1c(Cn2c(=O)n(CCCS(=O)(=O)O)c3ccccc32)nc2ccccc21,Long (subtype A),HEP-2,cytopathic effect,0.04 µM